According to US20230128372A1, “AZD1656 FOR USE IN THE TREATMENT OF PNEUMONITIS AND/OR MYCORDITIS CAUSED BY A CORONAVIRUS” (EXCALIBUR MEDICINES LIMITED, priority 2020, published 2023):

System: hospitalised diabetic patients with known or suspected COVID-19
Details: 60 patients having completed the trial, blinded data, 100 mg BID orally or placebo, 21 days

Question: Which “safety review by independent Safety Review Committee” value does the source give for `COC[C@H](C)Oc1cc(Oc2cnc(C(=O)N3CCC3)cn2)cc(C(=O)Nc2cnc(C)cn2)c1` [AZD1656, 3-{[5-(Azetidin-1-ylcarbonyl)pyrazin-2-yl]oxy}-5-{[(1S)-1-methyl-2-(methyloxy)ethyl]oxy}-N-(5-methylpyrazin-2-yl)benzamide] here?
Answer: no safety concerns
